Assay results: article PMC8420576 (The EMBO Journal, 2021)

Molecular target: SARS-CoV-2 Spike protein expressed in transfected HeLa cells (SARS-CoV-2, reference (Wuhan-Hu-1) …, UniProt P0DTC2)
Assay: immunostaining of cells or tissue
Conditions: one partner purified

B1: VHH antibody Re5D06 (VHH)
VHH: QVQLVESGGGLVQPGGSLRLSCAASGITLDYYAIGWFRQAPGKEREGVSRIRSSDGSTNYADSVKGRFTMSRDNAKNTVYLQMNSLKPEDTAVYYCAYGPLTKYGSSWYWPYEYDYWGQGTQVTVSS
notes: also called super-neutralizing VHH Re5D06
- binding result: binds
